# Data as given in paper PMC7034072, “Discovery of small molecule inhibitors of Leishmania braziliensis Hsp90 chaperone” (Journal of Enzyme Inhibition and Medicinal Chemistry, 2020).
# Sequences of proteins named here, by UniProt entry; tags and fusion partners are left off. Residues count along the entry.
# UniProt A4HL70, 1-704: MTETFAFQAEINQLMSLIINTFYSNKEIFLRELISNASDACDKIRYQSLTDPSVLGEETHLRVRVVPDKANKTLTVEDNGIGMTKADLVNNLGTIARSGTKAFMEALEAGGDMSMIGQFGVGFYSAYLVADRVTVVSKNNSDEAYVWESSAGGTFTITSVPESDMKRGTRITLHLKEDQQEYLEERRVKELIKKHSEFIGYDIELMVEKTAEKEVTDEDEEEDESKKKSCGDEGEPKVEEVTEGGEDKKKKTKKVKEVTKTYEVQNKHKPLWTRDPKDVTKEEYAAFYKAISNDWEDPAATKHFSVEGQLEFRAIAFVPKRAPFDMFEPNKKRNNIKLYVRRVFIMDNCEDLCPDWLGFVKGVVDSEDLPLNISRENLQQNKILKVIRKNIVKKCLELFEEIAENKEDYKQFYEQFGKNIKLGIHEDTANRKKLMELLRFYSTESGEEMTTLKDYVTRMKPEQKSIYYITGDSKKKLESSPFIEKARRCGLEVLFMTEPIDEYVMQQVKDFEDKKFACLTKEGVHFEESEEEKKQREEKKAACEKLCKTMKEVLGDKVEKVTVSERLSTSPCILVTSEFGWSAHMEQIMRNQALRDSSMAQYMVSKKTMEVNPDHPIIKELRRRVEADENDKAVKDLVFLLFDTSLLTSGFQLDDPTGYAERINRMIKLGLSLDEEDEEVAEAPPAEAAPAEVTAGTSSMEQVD
# Biological target: LbHsp90 (Leishmania braziliensis, UniProt A4HL70)
# Assay: ATPase activity inhibition assay (EnzChek Pi quantification)
# Type: biochemical
# Conditions: 50 μM compound, 2 μM enzyme, 2.5 mM ATP
# Protocol: The ATPase activity of LbHsp90 and hHsp90β was evaluated spectrophotometrically through inorganic phosphate (Pi) quantification following ATP hydrolysis, by the EnzChek™ assay kit (Invitrogen®) as previous described[31]^,[34]. Briefly, a 2 µM solution of LbHsp90 and hHsp90β enzymes was prepared in 150 mM NaCl, 5 mM MgCl2 and 20 mM Tris-HCl, pH 7.5, and incubated with ATP (concentration range 0–5 mM) for 60 min at 37 °C. Then, the chromogenic substrate 2-amino-6-mercapto 7-methyl purine riboside (MESG) and the purine nucleoside phosphorylase (PNP) were added and the resulting reaction mixture was incubated for 30 min at 37 °C. The assays were performed in a 96-well plate and kinetic parameters determined by Michaelis–Menten fitting using GraphPad Prism 6 software.
# The inhibitory activity against LbHsp90 and hHsp90β of compounds showing interaction in DSF assays (namely Glb08, Glb15, Gl23, Glb25 and Glb27) was determined using spectrophotometric ATPase activity assays as described above. […] A compound concentration ranging from 1 to 75 μM was included in the reaction mixture and Pi quantification performed as previously described (measurements were performed in triplicate). IC50 values were determined by non-linear regression data fitting (using GraphPad Prism 6 software).
structure (smiles),measurement,value
N=C(N)N/N=C/c1cnn(Cc2ccccc2)c1,percentage inhibition of LbHsp90 ATPase activity,more than 90% and around 90%

# The source holds more than one record for some entries. The list is limited to them. An entry can have further records. The records of an entry differ for a reason that is not stated; dose, time, organism, isomer or construct need not be as stated for each record.
